Measured values from several laboratories, pooled; numbers as filed in NIAID ChemDB.

All rows: whole-cell or culture tests; organism: HIV-1; measure: EC50

Two numbers with a dash give a range or band. Blank or dashed fields: not listed here. Rows are shuffled and stem from different studies. ECn: concentration that inhibits the pathogen or its effect by n%.

SMILES	strain or isolate	changes	cells	method	result
C#C[C@]1(COC(=O)OCCCCCCCCCCCC)O[C@@H](n2cnc3c(N)nc(F)nc32)C[C@@H]1O	NL4-3	gp160 M184V	U373-CD4-CXCR4	luminescence	0.0109 µM
CC(C)(O)CCc1c(O[C@@H]2O[C@H](CO)[C@@H](O)[C@H](O)[C@H]2O)cc2c(c1O)C(=O)[C@H](O)[C@@H](c1ccc(O)c(O)c1)O2	MC99 deltaTAT/REV	-	1A2	syncytia	102.4 µg/mL
C#C[C@]1(COCOC(=O)OCCCCCCCCCC)O[C@@H](n2cnc3c(N)nc(F)nc32)C[C@@H]1O	NL4-3	gp160 M184V	U373-CD4-CXCR4	luminescence	0.0111 µM
COc1cccc(CN(C(=O)OC(C)(C)C)c2cccc(-c3ccc4ccn(Cc5cccc(C(=O)O)c5)c4c3)c2)c1	HXB2	-	TZM-bl + HL2/3	cell fusion / luminescence	4.2 µM
COC(=O)c1cc(F)ccc1Cc1cnc(-c2nc3n(CC(=O)N4C[C@H](C)O[C@@H](C)C4)ccn3c(=O)c2O)s1	-	QHGS	HEK 293	luciferase	0.5–1 µM
C[C@@H]1CN(C(=O)c2ccccc2)CCN1C(=O)C(=O)c1c[nH]c2c(NC(=O)Nc3ccc(S(=O)(=O)O)cc3)cccc12	-	-	HeLa	luciferase / reporter gene	<1 µM
O=C(Cn1ccn2c(=O)c(O)c(-c3ncc(Cc4ccc(F)cc4)s3)nc12)N1CC2CC1CO2	-	QHGS	HEK 293	luciferase	1–10 µM
C#C[C@]1(COCOC(=O)OCCCCCCCCCCCCCCCC)O[C@@H](n2cnc3c(N)nc(F)nc32)C[C@@H]1O	NL4-3	gp160 M184V	U373-CD4-CXCR4	luminescence	0.019 µM
O=C(O)c1cc(Cc2cc(C(c3ccc(O)c(C(=O)O)c3)c3ccc(O)c(C(=O)O)c3)cc(C(=O)O)c2O)ccc1O	IIIB	-	MOLT-4/HUT-78	syncytia	1 µg/mL
CC1(C)C(=O)c2c(O)c(=O)c(C(=O)NCc3ccc(F)cc3F)cn2CC1NCCCP(=O)(O)O	NL4-3	-	MT4-GFP	fluorescence	>1.05 µM
CSc1cc(F)ccc1Cc1cnc(-c2nc3n(CC(=O)N4C[C@@H](C)O[C@H](C)C4)ccn3c(=O)c2O)s1	-	QHGS	HEK 293	luciferase	0.5–1 µM
CCN(C(=O)C(=O)N(C)C)[C@H]1CC[C@H](OC)Cn2c1nc(C(=O)NCc1ccc(F)cc1)c(O)c2=O	-	Q148R	HeLa P4-2	single cycle	>0.1 µM
COC(=O)[C@H](C)NP(=O)(OC[C@@H]1C=C[C@H](n2cc(C)c(=O)[nH]c2=O)O1)Oc1ccc(Br)cc1	IIIB	-	CEM + CEM TK-	p24	0.044 µM
C[C@@H]1CN(C(=O)c2ccccc2)CCN1C(=O)C(=O)c1c[nH]c2c(NC(=O)CNC(C)(C)C)cccc12	-	-	HeLa	luciferase / reporter gene	<1 µM
[N-]=[N+]=N[C@]1(CO)O[C@@H](n2cnc3c(N)ncnc32)C[C@@H]1O	-	-	A301 + A3.01	-	0.03 µM
CC(=O)c1c(C)nc(-c2ccccc2)nc1NC(=O)c1ccccc1	4755-5	-	HeLa	GFP / fluorescence	0.05 µM
COC(=O)[C@H](C)NP(=O)(OC[C@@H]1C=C[C@H](n2cc(C)c(=O)[nH]c2=O)O1)Oc1ccc(OC)cc1	IIIB	-	CEM + CEM TK-	p24	0.106 µM
CCOC(=O)CCCNC(=O)Nc1cccc2c(C(=O)C(=O)N3CCN(C(=O)c4ccccc4)C[C@H]3C)c[nH]c12	-	-	HeLa	luciferase / reporter gene	<1 µM
C[C@H]1CN(C(=O)Cn2ccn3c(=O)c(O)c(-c4ncc(Cc5ccc(F)cc5)s4)nc23)C[C@H](C)O1	-	N155H/E92Q	HEK 293	luciferase	0.1–1 µM
O=C(O)C(O)c1ccccc1	IIIB	-	CD4+ T-CELLS + CD4	p24	<10 µg/mL
CC[C@H]1COC[C@H](N(C)C(=O)C(=O)N(C)C)c2nc(C(=O)NCc3ccc(F)cc3)c(O)c(=O)n21	-	Y143R	HeLa P4-2	single cycle	0.002 µM
C#C[C@]1(CO)O[C@@H](n2cnc3c(NC(=O)CCCCCCCCC)nc(F)nc32)C[C@@H]1O	NL4-3	gp160 M184V	U373-CD4-CXCR4	luminescence	0.0061 µM
C[C@@H]1CN(C(=O)c2ccccc2)CCN1C(=O)C(=O)c1c[nH]c2c(NC(=O)NCC(=O)O)cccc12	-	-	HeLa	luciferase / reporter gene	<1 µM
CC(C)(C)OC(=O)c1cccc(Cn2ccc3ccc(-c4ccc5ccn(Cc6cccc(C(=O)O)c6)c5c4)cc32)c1	BaL	-	MAGI-CCR5	entry / luminescence	0.2 µM
CN1c2ccccc2C2C1C=C(C#N)C(=O)N2c1ccc([N+](=O)[O-])cc1	C-98INN022	-	HeLa	GFP / fluorescence	0.07 µM
CSCc1cn(CC(=O)N2CC(C)CC(C)C2)c2nc(C(=O)NCc3ccc(Cl)c(Cl)c3)c(O)c(=O)n12	-	QHGS	HEK 293	luciferase	1–10 µM
O=C(O)C1=CC(=C(c2ccc(O)c(C(=O)O)c2)c2ccc(O)c(C(=O)O)c2)C=C(Cc2ccc(O)c(C(=O)O)c2)C1=O	IIIB	-	MOLT-4/HUT-78	syncytia	8 µg/mL
CN(C)C1=C(C#N)/C(=C2/C(C#N)=C(N(C)C)N(c3ccc([N+](=O)[O-])cc3)c3c2n(C)c2ccccc32)c2c(c3ccccc3n2C)N1c1ccc([N+](=O)[O-])cc1	A17	RT-K103N Y181C	CEM + CEM-SS	cytopathic effect / XTT	2.98–3.48 µM
Cc1cc(S(N)(=O)=O)ccc1NC(=O)COc1ccc(Cl)cc1C(=O)c1cc(F)cc(C(F)(F)F)c1	IIIB	RT-V108I Y181C	HELA MAGI	luciferase	0.0034 µM
Nc1ccn([C@H]2C=C[C@@H](CO)O2)c(=O)n1	IIIB	-	ATH8	cytopathic effect	<0.5 µM
C[C@@H]1CCO[C@H]2Cn3cc(C(=O)NCc4ccc(F)cc4F)c(=O)c(O)c3C(=O)N12	-	V72I/L74F/V75I	TZM-bl	luciferase / luminescence	0.0013 µM
CNC(CC(=O)O)C(=O)Nc1cccc2c(C(=O)C(=O)N3CCN(C(=O)c4ccccc4)C[C@H]3C)c[nH]c12	-	-	HeLa	luciferase / reporter gene	<1 µM
COc1ccc(-c2coc3cc4c(c(OC)c3c2=O)OCO4)cc1OC	MC99 deltaTAT/REV	-	1A2	syncytia	>125 µg/mL
C#C[C@]1(COC(=O)OCCCCCCCCCCCCCCCCCC)O[C@@H](n2cnc3c(N)nc(F)nc32)C[C@@H]1O	NL4-3	gp160 M184V	U373-CD4-CXCR4	luminescence	0.0411 µM
CCOC(=O)CC[C@@H]1NC(=O)N(c2cccc3c(C(=O)C(=O)N4CCC(=C(C#N)c5ccccc5)CC4)c[nH]c23)C1=O	-	-	HeLa	luciferase / reporter gene	<1 µM
O=C(O)C1=CC(=C(c2ccc(O)c(C(=O)O)c2)c2ccc(O)c(C(=O)O)c2)C=CC1=O	-	-	HuT-78	cytopathic effect	0.69 µM
C[C@H]1C[C@H](C)CN(C(=O)Cn2ccn3c(=O)c(O)c(-c4ncc(Cc5ccc(F)cc5)s4)nc23)C1	-	QHGS	HEK 293	luciferase	0.5–1 µM
Cc1ccc(C(=O)Nc2ccc(S(=O)(=O)O)c3cc(S(=O)(=O)O)cc(S(=O)(=O)O)c23)cc1NC(=O)c1cccc(NC(=O)Nc2cccc(C(=O)Nc3cc(C(=O)Nc4ccc(S(=O)(=O)O)c5cc(S(=O)(=O)O)cc(S(=O)(=O)O)c45)ccc3C)c2)c1	-	-	HuT-78	cytopathic effect	18 µM
COc1cc(O)c2c(=O)cc(-c3ccc(Oc4cc(-c5cc(=O)c6c(O)cc(O)cc6o5)ccc4O)cc3)oc2c1	MC99 deltaTAT/REV	-	1A2	syncytia	2 µg/mL
Cc1ccnc(C)c1C(=O)N1CCC(C)(N2CCN([C@@H](C)c3ccc(C(F)(F)F)cc3)[C@@H](C)C2)CC1	JR-FL	-	U87 (CD4+ CCR5+) + U87	luciferase / entry	0.0015 µM
CCCc1cc(=O)oc2c3c(c4c(c12)OC(C)(C)CC4)O[C@H](C)[C@@H](C)C3=O	-	RT-K103N	-	cytopathic effect / XTT	30.6 µM
COc1cnc(-n2cnc(C)n2)c2[nH]cc(C(=O)C(=O)N3CCN(C(=O)c4ccccc4)CC3)c12	BaL	-	PM1	p24 / ELISA	0.0017 µM
Cc1cc(CNC(=O)c2nc3n(c(=O)c2O)[C@H](C)COC[C@@H]3N(C)C(=O)C(=O)N(C)C)ccc1F	-	N155H	HeLa P4-2	single cycle	0.003 µM
C[C@H]1CN(C(=O)Cn2ccn3c(=O)c(O)c(-c4ncc(Cc5ccc(F)c(Cl)c5)s4)nc23)C[C@H](C)O1	-	-	HEK 293	luciferase	0.1–1 µM
Cc1ccc(CNC(=O)c2nc3n(c(=O)c2O)C(C)CCCC3N(C)C(=O)C(=O)N(C)C)cc1F	-	Q148R	HeLa P4-2	single cycle	0.001 µM
CC(C)=CCOc1cc(NC(=S)c2ccsc2C)ccc1Cl	NL4-3	RT-L100I	CEM + CEM-SS	p24	0.2 µM
CO[C@]1(C)CC[C@@H](N(C)C(=O)C(=O)N(C)C)c2nc(C(=O)NCc3ccc(F)c(C)c3)c(O)c(=O)n2C1	-	N155H	HeLa P4-2	single cycle	0.002 µM
C#C[C@]1(CO)O[C@@H](n2cnc3c(NC(=O)OCC)nc(F)nc32)C[C@H]1OC(=O)OCC	NL4-3	gp160 M184V	U373-CD4-CXCR4	luminescence	15 µM
Cc1cc(CNC(=O)c2nc3n(c(=O)c2O)[C@H](C)COC[C@H]3N(C)C(=O)C(=O)N(C)C)ccc1F	-	G140S/Q148H	HeLa P4-2	single cycle	0.072 µM
C#C[C@]1(COCOC(=O)OC(C)C)O[C@@H](n2cnc3c(N)nc(F)nc32)C[C@H]1O	NL4-3	gp160 M184V	U373-CD4-CXCR4	luminescence	0.06 µM

For reference, 6 entries again:

SMILES | strain or isolate | changes | cells | method | result
O=C(O)C1=CC(=C(c2ccc(O)c(C(=O)O)c2)c2ccc(O)c(C(=O)O)c2)C=CC1=O | - | - | HuT-78 | cytopathic effect | 0.69 µM
COC(=O)c1cc(F)ccc1Cc1cnc(-c2nc3n(CC(=O)N4C[C@H](C)O[C@@H](C)C4)ccn3c(=O)c2O)s1 | - | QHGS | HEK 293 | luciferase | 0.5–1 µM
C[C@H]1C[C@H](C)CN(C(=O)Cn2ccn3c(=O)c(O)c(-c4ncc(Cc5ccc(F)cc5)s4)nc23)C1 | - | QHGS | HEK 293 | luciferase | 0.5–1 µM
C#C[C@]1(COCOC(=O)OCCCCCCCCCCCCCCCC)O[C@@H](n2cnc3c(N)nc(F)nc32)C[C@@H]1O | NL4-3 | gp160 M184V | U373-CD4-CXCR4 | luminescence | 0.019 µM
Cc1ccc(CNC(=O)c2nc3n(c(=O)c2O)C(C)CCCC3N(C)C(=O)C(=O)N(C)C)cc1F | - | Q148R | HeLa P4-2 | single cycle | 0.001 µM
CCN(C(=O)C(=O)N(C)C)[C@H]1CC[C@H](OC)Cn2c1nc(C(=O)NCc1ccc(F)cc1)c(O)c2=O | - | Q148R | HeLa P4-2 | single cycle | >0.1 µM